According to patent US20100016367A1, “BIS-PYRINIDIUM COMPOUNDS” (priority 2006, published 2010):
Several values for one entry are separate records, joined by “and”; a condition that tells them apart may be missing. Equal entries are not always repeated.

By UniProt entry, the sequences of proteins in these tests, tags left out. Where a name states a change or a piece, a line headed by the entry shows the natural chain unless it says otherwise.
UniProt Q9P8P2: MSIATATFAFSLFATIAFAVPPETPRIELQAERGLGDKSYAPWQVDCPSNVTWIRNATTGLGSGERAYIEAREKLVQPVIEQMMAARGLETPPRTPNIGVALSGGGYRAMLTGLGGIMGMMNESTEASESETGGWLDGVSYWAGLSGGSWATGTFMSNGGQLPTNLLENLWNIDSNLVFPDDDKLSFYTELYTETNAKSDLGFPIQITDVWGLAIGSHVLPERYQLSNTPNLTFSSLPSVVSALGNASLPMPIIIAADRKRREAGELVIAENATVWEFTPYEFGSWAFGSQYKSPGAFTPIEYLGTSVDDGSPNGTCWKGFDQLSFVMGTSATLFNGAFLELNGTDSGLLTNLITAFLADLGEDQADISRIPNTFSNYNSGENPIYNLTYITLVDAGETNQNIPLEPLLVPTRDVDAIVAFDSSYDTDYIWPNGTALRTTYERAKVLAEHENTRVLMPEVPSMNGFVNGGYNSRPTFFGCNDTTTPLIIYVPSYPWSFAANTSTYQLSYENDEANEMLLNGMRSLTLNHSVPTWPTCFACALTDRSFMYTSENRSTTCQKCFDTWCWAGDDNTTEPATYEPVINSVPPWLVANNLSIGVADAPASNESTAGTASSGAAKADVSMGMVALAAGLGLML

Key:
A. fumigatus 05-203114 = assay: Antifungal MIC, broad spectrum; type: cell-based, Aspergillus fumigatus; conditions: Table 1b
A. fumigatus ATCC 204305 = assay: Antifungal MIC, broad spectrum; type: cell-based, Aspergillus fumigatus; conditions: Table 1b
C. krusei 04-202328 = assay: Antifungal MIC, broad spectrum; type: cell-based, Candida krusei; conditions: Table 1b
C. krusei ATCC 9258 = assay: Antifungal MIC, broad spectrum; type: cell-based, Candida krusei; conditions: Table 1b
C. krusei ATCC 6258 = assay: Antifungal MIC, broad spectrum; type: cell-based, Candida krusei; conditions: Table 1b
C. tropicalis 04-202361 = assay: Antifungal MIC, broad spectrum; type: cell-based, Candida tropicalis; conditions: Table 1b
A. terreus 05-202844 = assay: Antifungal MIC, broad spectrum; type: cell-based, Aspergillus terreus; conditions: Table 1b
[1] = tested on: C. parapsilosis 04-202398; assay: Antifungal MIC, broad spectrum; type: cell-based, Candida parapsilosis; conditions: Table 1b
[2] = tested on: C. parapsilosis ATCC 22019; assay: Antifungal MIC, broad spectrum; type: cell-based, Candida parapsilosis; conditions: Table 1b
C. neoformans ATCC 90112 = assay: Antifungal susceptibility assay, MIC; type: cell-based, Cryptococcus neoformans
C. glabrata 04-202345 = assay: Antifungal MIC, broad spectrum; type: cell-based, Candida glabrata; conditions: Table 1b
A. flavus ATCC 204304 = assay: Antifungal MIC, broad spectrum; type: cell-based, Aspergillus flavus; conditions: for MIC A. flavus ATCC 204304: Table 1b
A. flavus 05-203758 = assay: Antifungal MIC, broad spectrum; type: cell-based, Aspergillus flavus; conditions: Table 1b
C. albicans ATCC 90028 = assay: Antifungal MIC, broad spectrum; type: cell-based, Candida albicans; conditions: Table 1b
C. neoformans 05-202523 = assay: Antifungal MIC, broad spectrum; type: cell-based, Cryptococcus neoformans; conditions: Table 1b
S. apiospermum 05-203100 = assay: Antifungal MIC, broad spectrum; type: cell-based, Scedosporium apiospermum; conditions: Table 1b
[3] = tested on: Cunninghamella berth 99-12187; assay: Antifungal MIC, broad spectrum; type: cell-based, Cunninghamella bertholletiae; conditions: Table 1b
C. albicans ATCC 10231 = assay: Antifungal susceptibility assay, MIC; type: cell-based, Candida albicans
[4] = tested on: Rhizopus oryzae 05-203111; assay: Antifungal MIC, broad spectrum; type: cell-based; conditions: Table 1b
[5] = tested on: Fusarium solani 04-203102; assay: Antifungal MIC, broad spectrum; type: cell-based; conditions: Table 1b
[6] = tested on: Exophiala spinifera 03-200803; assay: Antifungal MIC, broad spectrum; type: cell-based; conditions: Table 1b
[7] = tested on: Paecilomyces lilacinus 05-200601; assay: Antifungal MIC, broad spectrum; type: cell-based; conditions: Table 1b
[8] = tested on: Exophiala jeanselmei 03-200268; assay: Antifungal MIC, broad spectrum; type: cell-based; conditions: Table 1b
[9] = tested on: Absidia corymbifera 04-200170; assay: Antifungal MIC, broad spectrum; type: cell-based; conditions: Table 1b
C. gattii 05-200122 = assay: Antifungal MIC, broad spectrum; type: cell-based, Cryptococcus gattii; conditions: Table 1b
S. prolificans 05-203060 = assay: Antifungal MIC, broad spectrum; type: cell-based, Scedosporium prolificans; conditions: Table 1b
[10] = biological target: Secretory Cryptococcal H99 Phospholipase B (PLB) (Cryptococcus neoformans, UniProt Q9P8P2); assay: Phospholipase inhibition, radiometric assay; type: biochemical, C. neoformans var. grubii; conditions: read-out: Concentration required for 50% inhibition of PLB; secreted PLB activity, pH 4.0, 37° C.
[11] = tested on: Aspergillus terreus ATCC 03-232-378; assay: In vitro antifungal activity vs Amphotericin B; conditions: Table 2
[12] = tested on: Fusarium solani 04-132-4207; assay: In vitro antifungal activity vs Amphotericin B; conditions: Table 2
[13] = tested on: Scedosporium apiospermum 1-003-056; assay: In vitro antifungal activity vs Amphotericin B; conditions: Table 2
[14] = tested on: Scedosporium prolificans 1-003-040; assay: In vitro antifungal activity vs Amphotericin B; conditions: Table 2

| Compound | MIC A. fumigatus 05-203114 (A. fumigatus 05-203114) [µM] | MIC A. fumigatus ATCC 204305 (A. fumigatus ATCC 204305) [µM] | MIC C. krusei 04-202328 (C. krusei 04-202328) [µM] | MIC C. krusei ATCC 9258 (C. krusei ATCC 9258) [µM] | MIC C. krusei ATCC 6258 (C. krusei ATCC 6258) [µM] | MIC C. tropicalis 04-202361 (C. tropicalis 04-202361) [µM] | MIC A. terreus 05-202844 (A. terreus 05-202844) [µM] | MIC C. parapsilosis 04-202398 [1] [µM] | MIC C. parapsilosis ATCC 22019 [2] [µM] | MIC C. neoformans ATCC 90112 (C. neoformans ATCC 90112; Table 1b) [µM] | MIC C. glabrata 04-202345 (C. glabrata 04-202345) [µM] | MIC A. flavus ATCC 204304 (A. flavus ATCC 204304) [µM] | MIC A. flavus 05-203758 (A. flavus 05-203758) [µM] | MIC C. albicans ATCC 90028 (C. albicans ATCC 90028) [µM] | MIC C. neoformans 05-202523 (C. neoformans 05-202523) [µM] | MIC S. apiospermum 05-203100 (S. apiospermum 05-203100) [µM] | MIC Cunninghamella berth 99-12187 [3] [µM] | MIC C. albicans ATCC 10231 (C. albicans ATCC 10231; Table 1b) [µM] | MIC Rhizopus oryzae 05-203111 [4] [µM] | MIC Fusarium solani 04-203102 [5] [µM] | further results |
| --- | --- | --- | --- | --- | --- | --- | --- | --- | --- | --- | --- | --- | --- | --- | --- | --- | --- | --- | --- | --- | --- |
| CC(C)CCc1cc[n+](CCCCCCCCCCCC[n+]2ccc(CCC(C)C)cc2)cc1 | >87.5 | >87.5 | 44 | 22 | 44 | 5.5 | 5.5 | >87.5 | 2.75 | 5.5 | 2.75 | >87.5 | >87.5 | 5.5 | 22 | 22 | >87.5 | 5.5 | 11 | 87.5 | MIC C. neoformans ATCC 90112 (C. neoformans ATCC 90112; Table 1c): 5.5 µM; MIC C. albicans ATCC 10231 (C. albicans ATCC 10231; Table 1c): 5.5 µM; MIC Exophiala spinifera 03-200803 [6]: 2.75 µM; MIC Paecilomyces lilacinus 05-200601 [7]: >87.5 µM; MIC Exophiala jeanselmei 03-200268 [8]: 5.5 µM; MIC Absidia corymbifera 04-200170 [9]: >87.5 µM; MIC C. gattii 05-200122 (C. gattii 05-200122): 2.75 µM; MIC S. prolificans 05-203060 (S. prolificans 05-203060): 5.5 µM |
| C=CCCCc1cc[n+](CCCCCCCCCCCC[n+]2ccc(CCCC=C)cc2)cc1 | >87.5 | >87.5 | 22 | 22 | 11 | 2.75 | 2.75 | 87.5 | 2.75 | 22 | 2.75 | >87.5 | >87.5 | 2.75 | 22 | 22 | >87.5 | 2.75 | 11 | 87.5 | MIC Exophiala spinifera 03-200803 [6]: 1.4 µM; MIC Paecilomyces lilacinus 05-200601 [7]: >87.5 µM; MIC Exophiala jeanselmei 03-200268 [8]: 11 µM; MIC Absidia corymbifera 04-200170 [9]: >87.5 µM; MIC C. gattii 05-200122 (C. gattii 05-200122): 2.75 µM; MIC S. prolificans 05-203060 (S. prolificans 05-203060): 2.75 µM |
| CCCCCc1cc[n+](CCCCCCCCCCCCCC[n+]2ccc(CCCCC)cc2)cc1 | – | – | – | – | – | – | – | – | – | – | – | – | – | – | – | – | – | – | – | – | MIC C. neoformans ATCC 90112 (C. neoformans ATCC 90112; Table 1): 1.4 µM; IC50 [10]: 6.5 µM; MIC C. albicans ATCC 10231 (C. albicans ATCC 10231; Table 1): 0.7 µM |
| Amphotericin B | – | – | – | – | – | – | – | – | – | – | – | – | – | – | – | – | – | – | – | – | In vitro antifungal activity, Cryptococcus neoformans ATCC 90112 (C. neoformans ATCC 90112; Table 2): 0.50 μg/ml and 0.54 μM; In vitro antifungal activity, Aspergillus terreus ATCC 03-232-378 [11]: 1.0 μg/ml and 1.1 μM; In vitro antifungal activity, Fusarium solani 04-132-4207 [12]: 0.25 μg/ml and 0.27 μM; In vitro antifungal activity, Scedosporium apiospermum 1-003-056 [13]: 0.50 μg/ml and 0.54 μM; In vitro antifungal activity, Scedosporium prolificans 1-003-040 [14]: 4.0 μg/ml and 4.3 μM; In vitro antifungal activity, Aspergillus flavus ATCC 204 304 (A. flavus ATCC 204304; Table 2): 0.50 μg/ml and 0.54 μM; In vitro antifungal activity, Candida albicans ATCC 10231 (C. albicans ATCC 10231; Table 2): 0.50 μg/ml and 0.54 μM |
| CCCCCc1cccc[n+]1CCCCCCCCCCCC[n+]1ccccc1CCCCC | >87.5 | >87.5 | 44 | 44 | 44 | 1.4 | 1.4 | 87.5 | 1.4 | 11 | 0.7 | >87.5 | >87.5 | 2.75 | 87.5 | 2.75 | 87.5 | 2.75 | 5.5 | 44 | MIC C. neoformans ATCC 90112 (C. neoformans ATCC 90112; Table 1): 11 µM; MIC C. neoformans ATCC 90112 (C. neoformans ATCC 90112; Table 1c): 11 µM; MIC C. albicans ATCC 10231 (C. albicans ATCC 10231; Table 1): 2.7 µM; MIC C. albicans ATCC 10231 (C. albicans ATCC 10231; Table 1c): 2.75 µM; MIC Exophiala spinifera 03-200803 [6]: 0.7 µM; MIC Paecilomyces lilacinus 05-200601 [7]: >87.5 µM; MIC Exophiala jeanselmei 03-200268 [8]: 1.4 µM; MIC Absidia corymbifera 04-200170 [9]: >87.5 µM; MIC C. gattii 05-200122 (C. gattii 05-200122): 2.75 µM; MIC S. prolificans 05-203060 (S. prolificans 05-203060): 2.75 µM |
| c1cc[n+](CCCCCCCCCCCC[n+]2ccccc2)cc1 | – | – | – | – | – | – | – | – | – | – | – | – | – | – | – | – | – | – | – | – | IC50 [10]: > 250 µM |
